Experimental data from patent US20190100761A1, “COMPOSITIONS AND METHODS FOR ENHANCED GENE EXPRESSION AND VIRAL REPLICATION” (priority 2016, published 2019).

Tested on: IAV strain PR8
Type: cell-based, influenza A virus

YTHDF2: human cytoplasmic m^6A reader protein, SEQ ID NO: 5, overexpressed in cells
IAV viral protein levels: far higher levels
